{
  "source": "patent US20170280728A1",
  "about": "“ANTIMICROBIAL COMPOSITIONS AND METHODS OF THEIR USE” (CMS TECHNOLOGY, INC.., priority 2014, published 2017)",
  "tested_on": "Salmonella enterica serovar Anatum (ATCC #9270)",
  "assay": "Salmonella Assay (liquid sanitizer exposure, log reduction)",
  "format": "cell-based",
  "settings": "15 ppm chlorine, 0 ppm copper; Solution pH 6.0; Control Sample Baseline 6.75 log; n = 3",
  "data": [
    {"compound": "OCl", "values": [
      {"measurement": "Treated Sample Reduction", "value": 4.77, "unit": "log"}
    ]}
  ]
}
